Measured values from several laboratories, pooled; numbers as filed in NIAID ChemDB.

ECn is the concentration giving n% inhibition of infection, replication or growth.

| compound | measure | dose | protein | strain or isolate | agent | cell line | test | read by | result |
|---|---|---|---|---|---|---|---|---|---|
| O=C1c2ccccc2C(=O)c2sc(Nc3cc(Cl)ccc3Cl)nc21 | MIC |  |  | H37Rv | Mycobacterium tuberculosis | VERO | culture | BACTEC | 1.6 µg/mL |
| O=C(Nc1nnc(NCCN2CCOCC2)s1)c1cccc([N+](=O)[O-])c1 | IC50 |  | Polymerase |  | Human cytomegalovirus |  | target |  | >25 µM |
| C/C(=N\NC(=O)C[n+]1ccccc1)c1sc(-c2nc(C)c(/C(C)=N/NC(=O)C[n+]3ccccc3)s2)nc1C.[Cl-] | MIC bound |  |  | H37Rv | Mycobacterium tuberculosis |  | culture | BACTEC | >12.5 µg/mL |
| OC1(CCC2(O)CCCCC2)CCCCC1 | MIC |  |  | H37Rv | Mycobacterium tuberculosis |  | culture |  | >100 µg/mL |
| O=C(Nc1nnc(NCCC(c2ccccc2)c2ccccc2)s1)c1ccc2c(c1)C(=O)OC2=O | IC50 |  | Polymerase |  | Human cytomegalovirus |  | target |  | <25 µM |
| C/C([O-])=C(/c1nc(-c2ccc([N+](=O)[O-])o2)no1)[n+]1cc(C)ccc1C | MIC bound |  |  | H37Rv | Mycobacterium tuberculosis |  | culture | BACTEC | >12.5 µg/mL |
| N#Cc1ccc(C(=O)Nc2nnc(NCCc3c[nH]c4ccccc34)s2)cc1 | IC50 |  | Polymerase |  | Human cytomegalovirus |  | target |  | <25 µM |
| CC(=O)c1ccccc1Cl | MIC |  |  | H37Rv | Mycobacterium tuberculosis |  | culture |  | >100 µg/mL |
| c1ccc(C2CCN(c3cncc(-c4ccoc4)n3)CC2)cc1 | inhibition | 10 µM | UL97 kinase |  | Cytomegalovirus |  | target |  | >15% |
| CCCCCC(C)(O)C#CC(C)(O)CCCCC | MIC |  |  | H37Rv | Mycobacterium tuberculosis |  | culture |  | 50 µg/mL |
| CCCCCCCCCCCCCCCCCC1=NC(CO)(CO)CO1 | inhibition | 12.5 µg/mL |  | H37Rv | Mycobacterium tuberculosis |  | culture | BACTEC | -11% |
| Fc1ccc(-c2cncc(N3CCN(c4ccccc4)CC3)n2)cc1 | IC50 |  | UL97 kinase |  | Cytomegalovirus |  | target |  | <10 µM |
| CCN1C(=O)C(N2CCCCC2)S/C1=C\C(=O)O | MIC bound |  |  | H37Rv | Mycobacterium tuberculosis |  | culture | BACTEC | >12.8 µg/mL |
| CC(=O)Nc1cccc(N)c1.Cl | MIC |  |  | H37Rv | Mycobacterium tuberculosis |  | culture |  | >100 µg/mL |
| CC(=O)c1ccc(N2CCN(c3cncc(-c4ccoc4)n3)CC2)cc1 | IC50 |  | UL97 kinase |  | Cytomegalovirus |  | target |  | <10 µM |
| C#CC[C@@H](C(=O)N[C@H](/C=C/C(=O)OCC)C[C@@H]1CCNC1=O)n1cccc(NC(=O)c2cc(C)on2)c1=O | EC50 |  |  | Serotype 95 | Rhinovirus | H1-HELA | culture | cytopathic effect / XTT | 0.048 µM |
| Cl.c1ccn(-n2cccc2)c1 | MIC |  |  | H37Rv | Mycobacterium tuberculosis |  | culture |  | 25 µg/mL |
| Cc1cccc2c1CN1CC(=O)NC1=N2 | inhibition | 6.25 µg/mL |  | H37Rv | Mycobacterium tuberculosis |  | culture |  | 1% |
| Fc1ccc(N2CCCCC2)c(NC(=S)c2ccncc2)c1 | inhibition | 10 µM | BRSK2 |  |  |  | host protein | kinase activity | 2% |
| CCO/N=C/c1ccc(OCCC2CCN(c3ccc(C)nn3)CC2)cc1 | EC50 |  |  | 211-CV13 (ICAM-1 receptor group 9) | Rhinovirus | KB | culture | neutral red | 0.008 µM |
| Cc1coc(C)c1C(=S)Nc1ccc(Cl)c(C(=O)OC(C)C)c1 | MIC bound |  |  | H37Rv | Mycobacterium tuberculosis |  | culture | BACTEC | >12.5 µg/mL |
| OCc1cccc(-c2cncc(N3CCN(c4ccncc4)CC3)n2)c1 | IC50 |  | UL97 kinase |  | Cytomegalovirus |  | target |  | <100 µM |
| c1cnc2cc3oc4ccccc4c3cc2c1 | MIC |  |  | H37Rv | Mycobacterium tuberculosis |  | culture |  | 25 µg/mL |
| Cc1cccnc1NC(=O)c1csnn1 | MIC |  |  | H37Rv | Mycobacterium tuberculosis |  | culture | BACTEC | ≥12.5 µg/mL |
| COc1cc(OC)cc(C(=O)O)c1 | MIC |  |  | H37Rv | Mycobacterium tuberculosis |  | culture |  | >100 µg/mL |
| Cc1cc(/C=N/Nc2ccc3ccccc3n2)c(O)c2ncccc12 | inhibition | 12.5 µg/mL |  | H37Rv | Mycobacterium tuberculosis |  | culture | BACTEC | 78% |
| O=C(Nc1nnc(NCCCN2CCCC2=O)s1)c1ccc(F)cc1F | IC50 |  | Polymerase |  | Human cytomegalovirus |  | target |  | >25 µM |
| COc1ccc2ccccc2c1Br | MIC |  |  | H37Rv | Mycobacterium tuberculosis |  | culture |  | >100 µg/mL |
| S=C(S)NC1CCCCCCCCCCC1 | inhibition | 12.5 µg/mL |  | H37Rv | Mycobacterium tuberculosis |  | culture | BACTEC | 44% |
| CCN(CC)c1ccc(Nc2c3ccc(Cl)cc3nc3ccc(OC)cc23)cc1 | MIC |  |  | H37Rv | Mycobacterium tuberculosis |  | culture |  | >100 µg/mL |
| CC(=O)O[C@H]1CO[C@@H]2OC3[C@H](C(C=O)=C[C@@H](O)[C@H]4C5=C(C(C)C)CC[C@@]5(C)CC[C@]34C)[C@]2(O)C1=O | inhibition | 12.5 µg/mL |  | H37Rv | Mycobacterium tuberculosis |  | culture | BACTEC | 20% |
| Cc1ccc(-c2cncc(N3CCN(c4ccc(F)cc4)CC3)n2)cc1 | IC50 |  | UL97 kinase |  | Cytomegalovirus |  | target |  | <10 µM |
| Cc1ccc(N=Nc2c(C)nn(C(=S)S)c2C)cc1 | inhibition | 12.5 µg/mL |  | H37Rv | Mycobacterium tuberculosis |  | culture | BACTEC | 55% |
| CCN(CC)CCCNc1cc(C)nc(C)c1.Cl | MIC |  |  | H37Rv | Mycobacterium tuberculosis |  | culture |  | >100 µg/mL |
| O=C(Nc1nnc(NCCC(c2ccccc2)c2ccccc2)s1)c1cc(F)cc(F)c1 | IC50 |  | Polymerase |  | Human cytomegalovirus |  | target |  | >25 µM |
| CCN(CC)C(=O)c1ccc(N)cc1 | MIC |  |  | H37Rv | Mycobacterium tuberculosis |  | culture |  | 50 µg/mL |
| COc1ccc2c(c1)OC[C@@H]1c3cc(NS(=O)(=O)c4ccccc4)cc(OCc4ccccc4)c3O[C@H]21 | MIC bound |  |  | H37Rv | Mycobacterium tuberculosis |  | culture | BACTEC | >12.5 µg/mL |
| CSCCC(N)C(=O)O | MIC |  |  | H37Rv | Mycobacterium tuberculosis |  | culture |  | >100 µg/mL |
| CC(C)c1cc(C(C)C)c(C(=O)Nc2nnc(NC[C@@H]3CCC4CC3C4(C)C)s2)c(C(C)C)c1 | IC50 |  | Polymerase |  | Human cytomegalovirus |  | target |  | >25 µM |
| O=c1c2cc(Br)ccc2oc2ccc(Br)cc12 | MIC |  |  | H37Rv | Mycobacterium tuberculosis |  | culture |  | >100 µg/mL |
| CN(C)c1ccc(/C=C/c2cc(N(CCO)CCO)c3ccccc3n2)cc1 | inhibition | 6.25 µg/mL |  | H37Rv | Mycobacterium tuberculosis |  | culture | resazurin | 11% |
| C=C[C@H]1CN2CC[C@H]1C[C@@H]2[C@@H](O)c1ccnc2ccc(OC)cc12 | MIC |  |  | H37Rv | Mycobacterium tuberculosis |  | culture |  | >100 µg/mL |
| Cc1ccc(N2CCN(c3cncc(-c4csc5ccccc45)n3)CC2)cc1 | IC50 |  | UL97 kinase |  | Cytomegalovirus |  | target |  | <100 µM |
| Cc1ncc([N+](=O)[O-])n1Cc1nncs1 | inhibition | 6.25 µg/mL |  | H37Rv | Mycobacterium tuberculosis |  | culture | resazurin | 11% |
| CC(C)c1cc(C(C)C)c(C(=O)/C(=N/N)c2ccccc2)c(C(C)C)c1 | MIC |  |  | H37Rv | Mycobacterium tuberculosis |  | culture |  | >100 µg/mL |

The last 6 rows once more:

compound	measure	dose	protein	strain or isolate	agent	cell line	test	read by	result
O=c1c2cc(Br)ccc2oc2ccc(Br)cc12	MIC			H37Rv	Mycobacterium tuberculosis		culture		>100 µg/mL
CN(C)c1ccc(/C=C/c2cc(N(CCO)CCO)c3ccccc3n2)cc1	inhibition	6.25 µg/mL		H37Rv	Mycobacterium tuberculosis		culture	resazurin	11%
C=C[C@H]1CN2CC[C@H]1C[C@@H]2[C@@H](O)c1ccnc2ccc(OC)cc12	MIC			H37Rv	Mycobacterium tuberculosis		culture		>100 µg/mL
Cc1ccc(N2CCN(c3cncc(-c4csc5ccccc45)n3)CC2)cc1	IC50		UL97 kinase		Cytomegalovirus		target		<100 µM
Cc1ncc([N+](=O)[O-])n1Cc1nncs1	inhibition	6.25 µg/mL		H37Rv	Mycobacterium tuberculosis		culture	resazurin	11%
CC(C)c1cc(C(C)C)c(C(=O)/C(=N/N)c2ccccc2)c(C(C)C)c1	MIC			H37Rv	Mycobacterium tuberculosis		culture		>100 µg/mL

ICn: concentration for n% inhibition. Neighbouring rows are from separate reports. An empty or dashed field is not shown. Percent inhibition refers to the dose given; in toxicity tests it is the harm to the cells. MIC bound: limit read from a one-dose screen.